Measured values from several laboratories, pooled; numbers as filed in NIAID ChemDB.

All rows: cytotoxicity tests; cell line: MT-4; measure: CC50

Neighbouring rows are from separate reports.

smiles,result
Cc1cn([C@H]2C[C@H](N=[N+]=[N-])[C@@H](CO)O2)c(=O)[nH]c1=O,12 µg/mL
CC(C)(C)OC(=O)N[C@@H](Cc1ccccc1)C[C@H](O)[C@H](Cc1ccccc1)NC(=O)c1cc(N)ccc1Cl,>100 µM
CC(=O)SCCOP(=O)(OCCSC(C)=O)OC[C@@H]1CC[C@H](n2cnc3c(=O)[nH]cnc32)O1,>100 µM
O=c1oc(C(CC2CC2)CC2CC2)cc(O)c1C(c1cccc(NS(=O)(=O)c2ccc(F)cc2)c1)C1CC1,>30 µM
CCC(C)Oc1cc(=O)[nH]c(S(=O)(=O)c2cccc(C)c2)n1,70 µM
CCCCCCCCCCCC(=O)O[C@@H]1[C@@H](C)[C@@]2(O)[C@@H](C=C(COC(C)=O)C[C@@]3(O)C(=O)C(C)=C[C@@H]23)[C@@H]2C(C)(C)[C@]12OC(C)=O,>1000 µg/mL
CCC(C)Oc1cc(N)nc(Sc2ccccc2Cl)n1,87 µM
Cc1cn([C@H]2C[C@H](N=[N+]=[N-])[C@@H](CO)O2)c(=O)[nH]c1=O,4.81 µM
CCC(C)Oc1cc(N)nc(Sc2ccc(Cl)cc2N)n1,88 µM
Nc1nc(Cl)nc2c1ncn2[C@H]1O[C@@H](CO)[C@@H](O)[C@@H]1O,>10 µM
O=c1[nH]cnc2c1ncn2[C@H]1CC[C@@H](CO)O1,>125 µg/mL
CCNC(=O)[C@@H](NC(=O)c1ccccc1-c1ccccc1)[C@@H]1N[C@@H](C(=O)NCCNC(=O)[C@@H]2N[C@@H]([C@H](NC(=O)c3ccccc3-c3ccccc3)C(=O)NCC)SC2(C)C)C(C)(C)S1,>100 µM
CCCCSc1nc(N)cc(Sc2ccccc2)n1,123 µM
S=C(NCCc1ccccc1)Nc1ccc(Cl)cn1,51 µM
CC(=O)SCCOP(=O)(OCCSC(C)=O)OC[C@@H]1CC[C@H](n2cnc3c(N)ncnc32)O1,16 µM
Cc1cn([C@H]2C[C@H](N=[N+]=[N-])[C@@H](CO)O2)c(=O)[nH]c1=O,>2 µg/mL
COc1ccc(CSc2nc(Cc3c(F)cccc3F)c(C)c(=O)[nH]2)cc1OC,39.69 µM
CC(C)[C@H](NC(=O)N(C)Cc1ccccn1)C(=O)N[C@@H](Cc1ccccc1)[C@H](O)[C@H](O)[C@H](Cc1ccccc1)NC(=O)[C@@H](NC(=O)N(C)Cc1ccccn1)C(C)C,150 µM
NC(N)=NCCCC(=O)NCC1OC(OC2C(NC(=O)CCCN=C(N)N)CC(NC(=O)CCCN=C(N)N)C(OC3CC(NC(=O)CCCN=C(N)N)C(O)C(CO)O3)C2O)C(O)C(O)C1O,>200 µM
O=C1c2cccn2S(=O)(=O)c2ccccc2N1CC1CC1,>300 µM
[N-]=[N+]=N[C@H]1C[C@H](n2cc(CO)c(=O)[nH]c2=O)O[C@@H]1CO,>500 µM
COc1ccc(CSc2nc(Cc3ccc(C#N)cc3)c(C)c(=O)[nH]2)cc1,>66.31 µM
Cc1cn([C@H]2C[C@H](N=[N+]=[N-])[C@@H](CO)O2)c(=O)[nH]c1=O,>20 µM
COC(=O)CCCCCNC(=O)/C=C/c1cn([C@H]2C=C[C@@H](CO)O2)c(=O)[nH]c1=O,>100 µM
Fc1cccc(F)c1CCNC(=S)Nc1ccc(Cl)cn1,305 µM
Nc1nc(Cl)nc2c1ncn2[C@@H]1CC[C@H](CO)O1,>10 µM
Cc1cc(C#N)cc(C)c1Oc1nc(Nc2ccc(C#N)cc2)nc(N)c1Br,99.69 µM
O=C1CSC(c2c(F)cccc2F)N1c1ncccn1,>426.2 µM
CCC(C)Oc1cc(=O)[nH]c(Sc2ccc(Cl)cc2)n1,>300 µM
c1ccc(C2OCc3nc4ccccc4n32)cc1,47 µM
CC(C)CN1C(=O)c2cccn2S(=O)(=O)c2ccccc21,184 µM
[N-]=[N+]=N[C@H]1C[C@H](n2cnc3cncnc32)O[C@@H]1CO,>1000 µM
S=C(NCCc1ccccc1)Nc1ccccn1,389 µM
Nc1cc(Cl)nc(S(=O)(=O)c2ccccc2)n1,6 µM
Cc1cn([C@H]2C[C@H](N=[N+]=[N-])[C@@H](CO)O2)c(=O)[nH]c1=O,>1 µM
Cc1cn([C@H]2C=C[C@@H](CO)O2)c(=O)[nH]c1=O,2.9 µM
O=c1cc(-c2ccc(O)cc2)oc2cc(O)cc(O)c12,>500 µg/mL
Cc1cn([C@H]2C[C@H](N=[N+]=[N-])[C@@H](CO)O2)c(=O)[nH]c1=O,>7.5 µM
Nc1nc2c(ncn2[C@H]2C[C@H](F)[C@@H](CO)O2)c(=O)[nH]1,185 µM
CC(=O)OCCOCn1c(-c2ccccn2)c([N+](=O)[O-])c2ccccc21,>200 µM
O=C(N[C@@H](Cc1ccccc1)[C@@H](O)C[C@H](Cc1ccccc1)NC(=O)c1ccccc1)OCc1ccccc1,>100 µM
Fc1cccc(F)c1C1SCc2nc3ccccc3n21,19.2 µM
Nc1nc(Cl)nc2c1ncn2[C@@H]1C[C@@H](F)[C@H](CO)O1,>10 µM
CC(=O)c1cn(COCCO)c2ccccc12,>200 µM
[N-]=[N+]=N[C@H]1C[C@H](n2cnc3c(=O)[nH]cnc32)O[C@@H]1CO,17.8 µM
CC(C)(O)CCc1c(-c2ccc(O)cc2O)oc2c3c(cc(O)c2c1=O)OC(C)(C)C=C3,>100 µg/mL
Cc1cc(Br)c(Nc2ccnc(Nc3ccc(C#N)cc3)n2)c(Br)c1,0.1 µM
CC(=O)OC[C@@]12C[C@@]3(O)C(=O)[C@]1(C)C1C2[C@H]2C4C(C)(C)[C@]4(OC(C)=O)[C@H](OC(C)=O)[C@@H](C)[C@]2(O)[C@H]13,>500 µg/mL
O=[N+]([O-])CC1Nc2ccccc2S(=O)(=O)n2cccc21,7 µM
Cc1c(Cc2c(Cl)cccc2Cl)nc(SC/C=C/c2ccc([N+](=O)[O-])cc2)[nH]c1=O,>10.82 µM
COc1cc(C)nc(N2C(=O)CSC2c2c(F)cccc2Cl)n1,215 µM
CN(C)CCN1CC(=O)N2c3ccccc3N(C)n3cccc3C2C1=O,>300 µM
CCNC(=O)[C@@H](NC(=O)Cc1ccccc1)[C@@H]1N[C@@H](C(=O)NCCNC(=O)[C@@H]2N[C@@H]([C@H](NC(=O)Cc3ccccc3)C(=O)NCC)SC2(C)C)C(C)(C)S1,>100 µM
CCC(C)Oc1cc(=O)[nH]c(Sc2ccccc2C)n1,125 µM
Cc1c(Cc2c(Cl)cccc2Cl)nc(SCC(=O)c2ccc(C#N)cc2)[nH]c1=O,>56.31 µM
CCCCSc1nc(Sc2ccccc2)cc(=O)[nH]1,≥200 µM
CCCCCCCCCCCCCC(=O)O[C@@H]1[C@@H](C)[C@@]2(O)[C@@H](C=C(CO)C[C@]3(O)C(=O)C(C)=C[C@@H]23)[C@@H]2C(C)(C)[C@]12OC(C)=O,>31.3 µg/mL
Cc1cc(=O)[nH]c(N2C(=O)CSC2c2c(Cl)cccc2Cl)n1,179 µM
CCN1C(=O)c2cccn2S(=O)(=O)c2ccc(Cl)cc21,>300 µM
CCC(CC)c1cc(O)c(C(c2cccc(NS(=O)(=O)c3cn(C)cn3)c2)C2CC2)c(=O)o1,>30 µM
O=C(O)c1oc2cc(O)cc(O)c2c(=O)c1Oc1ccc(OCc2ccccc2)cc1OCc1ccccc1,>25 µg/mL
CC(=O)c1ccc(C)cc1NC(C(N)=O)c1c(Cl)cccc1Cl,>125 µg/mL
Nc1ncnc2c1ncn2[C@H]1C[C@H](N)[C@@H](CO)O1,21.8 µM
Cc1cc(=O)[nH]c(N2C(=O)CSC2c2c(F)cccc2Cl)n1,1.32 µM
CCNC(=O)[C@@H](NC(=O)Cc1ccccn1)[C@@H]1N[C@@H](C(=O)NCCNC(=O)[C@@H]2N[C@@H]([C@H](NC(=O)Cc3ccccn3)C(=O)NCC)SC2(C)C)C(C)(C)S1,>100 µM
Cc1ccc(NC(=S)NCCc2c(F)cccc2F)nc1,325 µM
Cc1cn([C@H]2C[C@H](N=[N+]=[N-])[C@@H](CO)O2)c(=O)[nH]c1=O,150 µM
CCNC(=O)[C@@H](NC(=O)Cc1ccccc1)[C@@H]1N[C@@H](C(=O)NCCNC(=O)[C@@H]2NC(CNC(=O)Cc3ccccc3)SC2(C)C)C(C)(C)S1,>100 µM
Fc1cccc(F)c1CCNC(=S)Nc1ccc(Br)cn1,269 µM
Cc1cc(C)nc(N2C(=O)CSC2c2c(F)cccc2Cl)n1,174 µM
COc1cc2c(c(OC)c1CC=C(C)C)C[C@H](c1ccc(O)cc1O)CO2,>10 µg/mL
Cc1cc(C)c(Nc2ccnc(Nc3ccc(C#N)cc3)n2)c(C)c1,2.512 µM
CC(=O)OCC1=C[C@H]2[C@@H]3C(C)(C)[C@]3(OC(C)=O)[C@H](OC(C)=O)[C@@H](C)[C@]2(O)[C@@H]2C=C(C)C(=O)[C@]2(O)C1,>500 µg/mL
CCc1c(Cc2c(Cl)cccc2Cl)nc(SC/C=C/c2ccc(OC)cc2)[nH]c1=O,0.19 µM
Cc1cc(C)nc(N2C(=O)CSC2c2c(F)cccc2F)n1,152 µM
CC(=O)OCCOCn1c(-c2ccccn2)c(Br)c2ccccc21,≥200 µM
Fc1cccc(F)c1C1SCc2nc3ccccc3n21,48.6 µM
CC(C)(C)OC(=O)CNC(=O)[C@@H](NC(=O)c1ccccc1-c1ccccc1)[C@@H]1N[C@@H](C(=O)NCCNC(=O)[C@@H]2N[C@@H]([C@H](NC(=O)c3ccccc3-c3ccccc3)C(=O)NCC(=O)OC(C)(C)C)SC2(C)C)C(C)(C)S1,>100 µM
COCCOCCCc1cc(O)c(C(c2cccc(NS(=O)(=O)c3cn(C)cn3)c2)C2CC2)c(=O)o1,>30 µM
O=c1ccn([C@H]2C[C@H](F)[C@@H](CO)O2)c(=O)[nH]1,8.2 µM
CCc1csc(NC(=S)NCCc2c(F)cccc2F)n1,304 µM
CCc1c(Cc2c(F)cccc2F)nc(SCc2ccc(OC)cc2)[nH]c1=O,>62.19 µM
CCC(Cc1ccccc1)c1cc(O)c(C(c2cccc(NS(=O)(=O)c3cccnc3)c2)C2CC2)c(=O)o1,>30 µM

For reference, 12 entries again:

smiles,result
CCC(Cc1ccccc1)c1cc(O)c(C(c2cccc(NS(=O)(=O)c3cccnc3)c2)C2CC2)c(=O)o1,>30 µM
Cc1cc(C)c(Nc2ccnc(Nc3ccc(C#N)cc3)n2)c(C)c1,2.512 µM
Nc1ncnc2c1ncn2[C@H]1C[C@H](N)[C@@H](CO)O1,21.8 µM
CCC(C)Oc1cc(=O)[nH]c(Sc2ccccc2C)n1,125 µM
O=C1CSC(c2c(F)cccc2F)N1c1ncccn1,>426.2 µM
[N-]=[N+]=N[C@H]1C[C@H](n2cnc3cncnc32)O[C@@H]1CO,>1000 µM
COCCOCCCc1cc(O)c(C(c2cccc(NS(=O)(=O)c3cn(C)cn3)c2)C2CC2)c(=O)o1,>30 µM
CC(C)(C)OC(=O)N[C@@H](Cc1ccccc1)C[C@H](O)[C@H](Cc1ccccc1)NC(=O)c1cc(N)ccc1Cl,>100 µM
Cc1cc(C)nc(N2C(=O)CSC2c2c(F)cccc2F)n1,152 µM
CCNC(=O)[C@@H](NC(=O)Cc1ccccc1)[C@@H]1N[C@@H](C(=O)NCCNC(=O)[C@@H]2NC(CNC(=O)Cc3ccccc3)SC2(C)C)C(C)(C)S1,>100 µM
COC(=O)CCCCCNC(=O)/C=C/c1cn([C@H]2C=C[C@@H](CO)O2)c(=O)[nH]c1=O,>100 µM
Cc1ccc(NC(=S)NCCc2c(F)cccc2F)nc1,325 µM

CCn: concentration that lowers growth or viability of the cells by n%.